Measurements: US9234005B2 (priority 2011, dated 2016)

Target: T1, PTPN4-PDZ (Homo sapiens, UniProt P29074, S499G)
T1 sequence (P29074 499-604 S499G): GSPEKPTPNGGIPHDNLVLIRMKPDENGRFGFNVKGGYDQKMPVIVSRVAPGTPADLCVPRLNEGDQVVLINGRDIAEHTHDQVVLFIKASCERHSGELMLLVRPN
Assay: biochemical

Q: How did the Kd turn out when `CC(C)[C@H](NC(=O)[C@H](CCC(=O)O)NC(=O)[C@@H](NC(=O)[C@H](CCC(=O)O)NC(=O)[C@H](CCCNC(=N)N)NC(=O)[C@H](CCC(=O)O)NC(=O)[C@H](Cc1ccc(O)cc1)NC(=O)[C@H](Cc1c[nH]c2ccccc12)NC(=O)[C@@H](N)CO)[C@@H](C)O)C(=O)O` [SEQ ID NO: 2, SWYERETEV] was run?
A: The Kd was 1090 nM.
